A mixed list of measured activities; the numbers were collected in NIAID ChemDB.

Common to all: growth or infection tests; species: Coxsackie virus; read by: cytopathic effect; read-out: EC50

Neighbouring rows are from separate reports.

SMILES	strain or isolate	cell line	value
Cc1ccc(C(=O)CCCCCCOc2ccc(C3=NC(C)(C)CO3)cc2)s1	TYPE B2	VERO	>26.95 µM
CC=NC(=N)c1nc(-c2cccc(OC)c2)n(COCCO)n1	TYPE B4	HeLa	>10 µg/mL
Cc1cc(OCCCc2ccc(Cl)nn2)cc(C)c1-c1noc(C(F)F)n1	-	HeLa	0.033–0.659 µg/mL
C=C(N=CC)c1nc(-c2ccccc2)n([C@@H]2O[C@H](CO)[C@@H](O)[C@H]2O)n1	TYPE B4	HeLa	>200 µg/mL
Cc1ccc(C(=O)CCCCCCOc2ccc(C3=NCCO3)cc2Cl)s1	TYPE B5	VERO	13.74 µM
CCc1ccc(CCCOc2c(C)cc(-c3nnn(C)n3)cc2C)o1	-	HeLa	0.033–0.659 µg/mL
Cc1ccc(C(=O)CCCCOc2ccc(C3=N[C@H](C)CO3)cc2)s1	TYPE B2	VERO	2.52 µM
CC(Sc1ncnc2c1cnn2COCCO)C(N)=O	TYPE B4	VERO	>400 µg/mL
CC(=O)c1ccc(CCCOc2c(C)cc(-c3noc(C(F)(F)F)n3)cc2C)nn1	-	HeLa	0.033–0.659 µg/mL
CC=NC(=N)c1nc(-c2cccc(C)c2)n(Cc2ccccc2)n1	TYPE B4	HeLa	>10 µg/mL
Cc1ccc(C(=O)CCCCOc2ccc(C3=NC(C)CO3)cc2)s1	TYPE B5	VERO	21.01 µM
Cc1cc(-c2noc(C(F)(F)F)n2)cc(C)c1OCCCc1cccnn1	-	HeLa	0.033–0.659 µg/mL
NC(=O)CSc1ncnc2c1cnn2COCCO	TYPE B4	VERO	>400 µg/mL
Cc1cc(OCCCc2ccc(CO)nn2)cc(C)c1-c1noc(C(F)F)n1	-	HeLa	0.033–0.659 µg/mL
CCC(Sc1ncnc2c1cnn2COCC(O)CO)C(N)=O	TYPE B4	VERO	>400 µg/mL
Cc1ccc(C(=O)CCCCOc2ccc(C3=N[C@@H](C)CO3)cc2)s1	TYPE B5	VERO	22.24 µM
C=C(N=CC)c1nc(-c2ccc(C)cc2)n(C2O[C@H](CO)[C@@H](O)[C@H](O)[C@H]2O)n1	TYPE B4	HeLa	>200 µg/mL
NC(=O)CSc1ncnc2c1cnn2CCCCO	TYPE B4	HeLa	>400 µg/mL
COCc1ccc(CCCOc2cc(C)c(-c3noc(C)n3)c(C)c2)nn1	-	HeLa	0.033–0.659 µg/mL
Cc1ccc(C(=O)CCCCCCOc2ccc(C3=NC(C)CO3)cc2)s1	TYPE B2	VERO	>25.97 µM
CC=NC(=N)c1nc(-c2cccc(C)c2)n(C/C=C/c2ccccc2)n1	TYPE B4	HeLa	>10 µg/mL
COc1ccc(CCCOc2cc(C)c(-c3noc(C(F)F)n3)c(C)c2)nn1	-	HeLa	0.033–0.659 µg/mL

The first 2 rows once more:

Cc1ccc(C(=O)CCCCCCOc2ccc(C3=NC(C)(C)CO3)cc2)s1 ; strain or isolate: TYPE B2 ; cell line: VERO ; value: >26.95 µM
CC=NC(=N)c1nc(-c2cccc(OC)c2)n(COCCO)n1 ; strain or isolate: TYPE B4 ; cell line: HeLa ; value: >10 µg/mL

ECn is the concentration giving n% inhibition of infection, replication or growth. Two numbers with a dash give a range or band. An empty or dashed field is not shown.